# From US20200339511A1, “Substituted indoline derivatives as dengue viral replication inhibitors” (priority 2016, published 2020)
# Tested on: DENV-2 16681 strain
# Assay: DENV-2 antiviral assay (eGFP-labeled virus in Vero cells)
# Format: cell-based, Dengue virus
# Conditions: SI=CC50/EC50, DENV-2 antiviral assay
# Protocol: The antiviral activity of all the compounds of the invention was tested the against DENV-2 16681 strain which was labeled with enhanced green fluorescent protein (eGPF). The culture medium consists of minimal essential medium supplemented with 2% of heat-inactivated fetal calf serum, 0.04% gentamycin (50 mg/mL) and 2 mM of L-glutamine. Vero cells, obtained from ECACC, were suspended in culture medium and 25 μL was added to 384-well plates (2500 cells/well), which already contain the antiviral compounds. Typically, these plates contain a 5-fold serial dilution of 9 dilution steps of the test compound at 200 times the final concentration in 100% DMSO (200 nL). […] Finally, each plate contains wells which are assigned as virus controls (containing cells and virus in the absence of compound), cell controls (containing cells in the absence of virus and compound) and medium controls (containing medium in the absence of cells, virus and compounds). To the wells assigned as medium control, 25 μL of culture medium was added instead of Vero cells. Once the cells were added to the plates, the plates were incubated for 30 minutes at room temperature to allow the cells to distribute evenly within the wells. Next, the plates were incubated in a fully humidified incubator (37° C., 5% CO2) until the next day. Then, DENV-2 strain 16681, labeled with eGFP, was added at a multiplicity of infection (MOI) of 0.5. Therefore, 15 μL of virus suspension was added to all the wells containing test compound and to the wells assigned as virus control. In parallel, 15 μL of culture medium was added to the medium and cell controls. Next, the plates were incubated for 3 days in a fully humidified incubator (37° C., 5% CO2). At the day of the read out, the eGFP fluorescence was measured using an automated fluorescence microscope at 488 nm (blue laser). Using an in-house LIMS system, inhibition dose response curves for each compound were calculated and the half maximal effective concentration (EC50) was determined. Therefore, the percent inhibition (I) for every test concentration is calculated using the following formula: I=100*(ST-SCC)/(SVC-SCC), ST, SCC and SVC are the amount of eGFP signal in the test compound, cell control and virus control wells, respectively. The EC50 represents the concentration of a compound at which the virus replication is inhibited with 50%, as measured by a 50% reduction of the eGFP fluorescent intensity compared to the virus control. The EC50 is calculated using linear interpolation (Table 1).
row,Structure (SMILES),SI
1,"COc1cc(NC(C(=O)N2CCc3ccc(OC(F)(F)F)cc32)c2ccc(Cl)cc2)cc(OCCO)c1 (racemic) [Compound 3, 2-(4-chlorophenyl)-2-((3-(2-hydroxyethoxy)-5-methoxyphenyl)amino)-1-(6-(trifluoromethoxy)indolin-1-yl)ethanone]",1760
2,"COc1cc(NC(C(=O)N2CCc3ccc(C(F)(F)F)cc32)c2ccc(Cl)cc2OC)cc(OCCO)c1 (single isomer, unassigned) [Compound 1A, 2-(4-chloro-2-methoxyphenyl)-2-((3-(2-hydroxyethoxy)-5-methoxyphenyl)amino)-1-(6-(trifluoromethyl)indolin-1-yl)ethanone]",50
3,"COc1cc(NC(C(=O)N2CCc3ccc(C(F)(F)F)cc32)c2ccc(Cl)cc2F)cc(OCCO)c1 (single isomer, unassigned) [Compound 2A, 2-(4-chloro-2-fluorophenyl)-2-((3-(2-hydroxyethoxy)-5-methoxyphenyl)amino)-1-(6-(trifluoromethyl)indolin-1-yl)ethanone]",46
4,"COc1cc(NC(C(=O)N2CCc3ccc(OC(F)(F)F)cc32)c2ccc(Cl)cc2F)cc(OCCO)c1 (single isomer, unassigned) [Compound 6A, 2-(4-chloro-2-fluorophenyl)-2-((3-(2-hydroxyethoxy)-5-methoxyphenyl)amino)-1-(6-(trifluoromethoxy)indolin-1-yl)ethanone]",49
5,"COc1cc(NC(C(=O)N2CCc3ccc(C(F)(F)F)cc32)c2ccc(Cl)cc2F)cc(OCCO)c1 (racemic) [Compound 2, 2-(4-chloro-2-fluorophenyl)-2-((3-(2-hydroxyethoxy)-5-methoxyphenyl)amino)-1-(6-(trifluoromethyl)indolin-1-yl)ethanone]",1400
6,"COc1cc(NC(C(=O)N2CCc3c(C)cc(OC(F)(F)F)cc32)c2ccc(Cl)cc2)cc(OCCO)c1 (single isomer, unassigned) [Compound 9A, 2-(4-chlorophenyl)-2-((3-(2-hydroxyethoxy)-5-methoxy-phenyl)amino)-1-(4-methyl-6-(trifluoromethoxy)indolin-1-yl)ethanone]",12
7,"COc1cc(NC(C(=O)N2CCc3cc(OC)c(C(F)(F)F)cc32)c2ccc(Cl)cc2OC)cc(OCCO)c1 (single isomer, unassigned) [Compound 11A, 2-(4-chloro-2-methoxyphenyl)-2-((3-(2-hydroxyethoxy)-5-methoxyphenyl)amino)-1-(5-methoxy-6-(trifluoromethyl)indolin-1-yl)ethanone]",>94
8,"COc1cc(NC(C(=O)N2CCc3cc(F)c(C(F)(F)F)cc32)c2ccc(Cl)cc2)cc(OCCO)c1 (single isomer, unassigned) [Compound 12B, 2-(4-chlorophenyl)-1-(5-fluoro-6-(trifluoromethyl)indolin-1-yl)-2-((3-(2-hydroxyethoxy)-5-methoxyphenyl)amino)ethanone]",27
9,"COc1cc(NC(C(=O)N2CCc3cc(OC)c(C(F)(F)F)cc32)c2ccc(Cl)cc2OC)cc(OCCO)c1 (racemic) [Compound 11, 2-(4-chloro-2-methoxyphenyl)-2-((3-(2-hydroxyethoxy)-5-methoxyphenyl)amino)-1-(5-methoxy-6-(trifluoromethyl)indolin-1-yl)ethanone]",8650
10,"COc1cc(NC(C(=O)N2CCc3ccc(OC(F)(F)F)cc32)c2ccc(Cl)cc2OC)cc(OCCO)c1 (racemic) [Compound 5, 2-(4-chloro-2-methoxyphenyl)-2-((3-(2-hydroxyethoxy)-5-methoxyphenyl)amino)-1-(6-(trifluoromethoxy)indolin-1-yl)ethanone]",2040
11,"COc1cc(NC(C(=O)N2CCc3ccc(OC(F)(F)F)cc32)c2ccc(Cl)cc2OC)cc(OCCO)c1 (single isomer, unassigned) [Compound 5B, 2-(4-chloro-2-methoxyphenyl)-2-((3-(2-hydroxyethoxy)-5-methoxyphenyl)amino)-1-(6-(trifluoromethoxy)indolin-1-yl)ethanone]",19
12,"COc1cc(NC(C(=O)N2CCc3cc(OC)c(C(F)(F)F)cc32)c2ccc(Cl)cc2)cc(OCCO)c1 (racemic) [Compound 7, 2-(4-chlorophenyl)-2-((3-(2-hydroxyethoxy)-5-methoxyphenyl)amino)-1-(5-methoxy-6-(trifluoromethyl)indolin-1-yl)ethanone]",4670
13,"COc1cc(NC(C(=O)N2CCc3ccc(OC(F)(F)F)cc32)c2ccc(Cl)cc2)cc(OCCO)c1 (single isomer, unassigned) [Compound 3B, 2-(4-chlorophenyl)-2-((3-(2-hydroxyethoxy)-5-methoxyphenyl)amino)-1-(6-(trifluoromethoxy)indolin-1-yl)ethanone]",19
14,"COc1cc(NC(C(=O)N2CCc3c(C)cc(C(F)(F)F)cc32)c2ccc(Cl)cc2)cc(OCCO)c1 (single isomer, unassigned) [Compound 10A, 2-(4-chlorophenyl)-2-((3-(2-hydroxyethoxy)-5-methoxy-phenyl)amino)-1-(4-methyl-6-(trifluoromethyl)indolin-1-yl)ethanone]",8.4
15,"COc1cc(NC(C(=O)N2CCc3ccc(C(F)(F)F)cc32)c2ccc(Cl)cc2OC)cc(OCCO)c1 (racemic) [Compound 1, 2-(4-chloro-2-methoxyphenyl)-2-((3-(2-hydroxyethoxy)-5-methoxyphenyl)amino)-1-(6-(trifluoromethyl)indolin-1-yl)ethanone]",2070
16,"COc1cc(NC(C(=O)N2CCc3cc(OC)c(C(F)(F)F)cc32)c2ccc(Cl)cc2F)cc(OCCO)c1 (single isomer, unassigned) [Compound 8A, 2-(4-chloro-2-fluorophenyl)-2-((3-(2-hydroxyethoxy)-5-methoxyphenyl)amino)-1-(5-methoxy-6-(trifluoromethyl)indolin-1-yl)ethanone]",>81
17,"COc1cc(NC(C(=O)N2CCc3ccc(OC(F)(F)F)cc32)c2ccc(Cl)cc2F)cc(OCCO)c1 (racemic) [Compound 6, 2-(4-chloro-2-fluorophenyl)-2-((3-(2-hydroxyethoxy)-5-methoxyphenyl)amino)-1-(6-(trifluoromethoxy)indolin-1-yl)ethanone]",1940
18,"COc1cc(NC(C(=O)N2CCc3cc(OC)c(C(F)(F)F)cc32)c2ccc(Cl)cc2)cc(OCCO)c1 (single isomer, unassigned) [Compound 7A, 2-(4-chlorophenyl)-2-((3-(2-hydroxyethoxy)-5-methoxyphenyl)amino)-1-(5-methoxy-6-(trifluoromethyl)indolin-1-yl)ethanone]",26
19,"COc1cc(NC(C(=O)N2CCc3cc(OC)c(OC(F)(F)F)cc32)c2ccc(Cl)cc2)cc(OCCO)c1 (single isomer, unassigned) [Compound 13B, 2-(4-chlorophenyl)-2-((3-(2-hydroxyethoxy)-5-methoxyphenyl)amino)-1-(5-methoxy-6-(trifluoromethoxy)indolin-1-yl)ethanone]",>123
20,"COc1cc(NC(C(=O)N2CCc3ccc(C(F)(F)F)cc32)c2ccc(Cl)cc2)cc(OCCO)c1 (racemic) [Compound 4, 2-(4-chlorophenyl)-2-((3-(2-hydroxyethoxy)-5-methoxyphenyl)amino)-1-(6-(trifluoromethyl)indolin-1-yl)ethanone]",1440
